≈ marks a conversion by molar mass, not a printed value. Read-outs that look alike come from different tables or passages of the source.
Test system: S. aureus NRS3 (S84L GyrA and S80F ParC)
Experiment: microbe, parasite or virus in culture
Type: cell-based
[1] = Staphylococcus aureus, NRS3, read-out: MIC against S. aureus NRS3
[2] = Staphylococcus aureus, NRS3; read-out: MIC against S. aureus NRS3

Compound | MIC [1] [µg/mL] | MIC [2] [µg/mL]
CC(=O)NC[C@H]1CN(c2ccc(N3CCOCC3)c(F)c2)C(=O)O1 [LINEZ, linezolid, reference compound] | 0.5 (≈ 1.48 µM) | –
CCCc1cc(=O)n(C)c2c3c4c(cc12)c(CCC)cc(=O)n4CO3 [Compound 14] | – | 32 (≈ 94.6 µM)
Cc1cc(=O)n(C)c2c3c4c(cc12)c(C)cc(=O)n4C(C)O3 (centres unmarked) [Compound 5] | – | 0.03 (≈ 0.101 µM)
CN[C@H](CC(C)C)C(=O)N[C@H]1C(=O)N[C@@H](CC(N)=O)C(=O)N[C@H]2C(=O)N[C@H]3C(=O)N[C@H](C(=O)N[C@H](C(=O)O)c4cc(O)cc(O)c4-c4cc3ccc4O)[C@H](O)c3ccc(c(Cl)c3)Oc3cc2cc(c3O[C@@H]2O[C@H](CO)[C@@H](O)[C@H](O)[C@H]2O[C@H]2C[C@](C)(N)[C@H](O)[C@H](C)O2)Oc2ccc(cc2Cl)[C@H]1O [VANC, vancomycin, reference compound] | 8 (≈ 5.52 µM) | –
CCCCCn1c(=O)cc(C)c2cc3c(C)cc(=O)n4c3c(c21)OC4 [Compound 9] | – | 0.25 (≈ 0.739 µM)
CCn1c(=O)cc(C)c2cc3c(C)cc(=O)n4c3c(c21)OC4 [DNM-2] | – | 0.03 (≈ 0.101 µM)
CCCCCCn1c(=O)cc(C)c2cc3c(C)cc(=O)n4c3c(c21)OC4 [Compound 10] | – | 1 (≈ 2.84 µM)
Cc1cc(=O)n2c3c(c4c(cc13)c(C)cc(=O)n4CC(C)C)OC2 [Compound 11] | – | 2 (≈ 6.17 µM)
CCc1cc(=O)n2c3c(c4c(cc13)c(C)cc(=O)n4C)OC2 [DNM-3] | – | 0.12 (≈ 0.405 µM)
CCCc1cc(=O)n(C)c2c3c4c(cc12)c(C)cc(=O)n4CO3 [Compound 7] | – | 1 (≈ 3.22 µM)
CCCCn1c(=O)cc(CCC)c2cc3c(CCC)cc(=O)n4c3c(c21)OC4 [Compound 15] | – | 32 (≈ 84.1 µM)
Cc1cc(=O)n(C)c2c3c4c(cc12)c(C)cc(=O)n4CO3 [DNM, deoxynybomycin] | – | 0.03 (≈ 0.106 µM)
CCc1cc(=O)n(C)c2c3c4c(cc12)c(C)cc(=O)n4CO3 [Compound 4] | – | 0.25 (≈ 0.844 µM)
Cc1cc(=O)n2c3c(c4c(cc13)c(C)cc(=O)n4CC(C)(C)C)OC2 [Compound 12] | – | 16 (≈ 47.3 µM)
CCCc1cc(=O)n2c3c(c4c(cc13)c(C)cc(=O)n4C)OC2 [Compound 6] | – | 0.25 (≈ 0.806 µM)
CCCn1c(=O)cc(C)c2cc3c(C)cc(=O)n4c3c(c21)OC4 [DNM-8] | – | 0.12 (≈ 0.387 µM)
CCc1cc(=O)n(C)c2c3c4c(cc12)c(CC)cc(=O)n4CO3 [Compound 13] | – | 16 (≈ 51.6 µM)

— patent US9920069B2, “Compounds for treatment of fluoroquinolone-resistant bacteria” (The Board of Trustees of the University of Illinois, priority 2014, dated 2018)
